Assay results from PMC3040979.

Tested on: CCCCCCCC(=O)O
Test: purified protein
Details: pH 7.5; 30.0 °C

Q: Which Km does the source give for “LpFAAL (Legionella pneumophila subsp. pneumophila str. Philadelphia 1)” here?
A: 811 ± 111 µM
